Target: CifPl (Photorhabdus laumondii, UniProt Q7N439)
Assay: MALDI-TOF intact mass, tryptic peptide mass fingerprinting, fluorescence increase at […] nm
Conditions: covalent; alkylation of active-site Cys123; pH 7.0, 1 h

The chains behind the UniProt entries cited, without tags or fusion partners. Residues count along the entry.
UniProt Q7N439, 54-313 limits assumed: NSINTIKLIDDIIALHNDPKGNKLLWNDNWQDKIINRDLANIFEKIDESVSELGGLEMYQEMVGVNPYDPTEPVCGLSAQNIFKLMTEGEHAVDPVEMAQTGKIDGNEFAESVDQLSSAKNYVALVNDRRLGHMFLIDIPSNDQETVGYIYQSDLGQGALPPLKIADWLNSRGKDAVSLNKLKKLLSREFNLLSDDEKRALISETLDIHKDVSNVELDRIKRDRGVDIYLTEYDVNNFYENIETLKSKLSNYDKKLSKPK

## CN(C)c1ccc2cc(C(=O)CBr)ccc2c1
  MALDI-TOF intact mass, tryptic peptide mass fingerprinting, fluorescence increas: consistent with modification at a single site in both proteins
